Pooled drug test results. Numbers come from NIAID ChemDB, via PubChem.

All rows: toxicity to cultured cells; cell line: L6; measure: CC50

CCn: concentration that lowers growth or viability of the cells by n%. Rows are shuffled and stem from different studies.

CCN(CC)CCCNC(=O)c1ccc(-c2cc(C#N)cc(C3(C(C)C)C(C#N)=C(N)Oc4n[nH]c(C)c43)c2)s1 ; method: fluorescence ; value: 96.8 µM
Nc1[nH]c(N=NC(=O)c2ccccn2)c2cccc(Oc3ccccc3)c12 ; value: 22 nM
CCCCOC(=O)CC[C@H](NC(=O)c1ccc(-c2cc(C#N)cc(C3(C(C)C)C(C#N)=C(N)Oc4n[nH]c(C)c43)c2)s1)C(=O)OCCCC ; method: fluorescence ; value: >145.2 µM
CN(C)c1cc[n+](Cc2ccc(CCc3ccc(-[n+]4ccc(N(C)c5ccc(Cl)cc5)cc4)cc3)cc2)cc1 ; method: resazurin ; value: 0.1 µg/mL
CN(C)CCSc1cccc2c(N=NC(=O)c3ccccn3)[nH]c(N)c12 ; value: 10 nM
CCOC(=O)C1=C(O)/C(=C\c2cc(C)n(C3CCN(Cc4ccccn4)CC3)c2C)N=C1C ; value: 5.9 µM
CC(C)C1(c2cc(C#N)cc(C#N)c2)C(C#N)=C(N)Oc2[nH]ncc21 ; method: fluorescence ; value: 242.4 µM
CN(C)c1ccnc(C(=O)N=Nc2[nH]c(N)c3c2ccc2ccccc23)c1 ; value: 36 nM
Cc1[nH]nc2c1C(c1cc(C#N)cc(C#N)c1)(C(C)C)C(C#N)=C(N)O2 ; method: fluorescence ; value: >290 µM
CCOC(=O)C1=C(O)/C(=C\c2cc(C)n(C3CCN(CCN4CCCCC4)CC3)c2C)N=C1C ; value: 97 µM
Nc1[nH]c(N=NC(=O)c2ccccn2)c2c1ccc1ccccc12 ; value: 68 nM
Cn1c2nc3ccccc3c-2c(Cl)c2ccccc21 ; method: resazurin ; value: 1.459 µM
C=C(C)C1CC[C@]2(C(=O)O)CC[C@@]3(C)[C@]4(C)CC[C@H]5C(C)(C)[C@@H](O)CC[C@]5(C)[C@H]4CC[C@]3(C)[C@@H]12 ; method: MTT ; value: 10.6 µM
Nc1[nH]c(N=NC(=O)c2ccccn2)c2c(Oc3ccccc3)cccc12 ; value: 1289 nM
CCOC(=O)C1=C(O)/C(=C\c2cc(C)n(C3CCNCC3)c2C)N=C1C ; value: >250 µM

For reference, 2 entries again:

{"compound": "CN(C)c1cc[n+](Cc2ccc(CCc3ccc(-[n+]4ccc(N(C)c5ccc(Cl)cc5)cc4)cc3)cc2)cc1", "method": "resazurin", "value": "0.1 µg/mL"}
{"compound": "CCOC(=O)C1=C(O)/C(=C\\c2cc(C)n(C3CCNCC3)c2C)N=C1C", "value": ">250 µM"}